HIV-1 NL4-3 point mutations in Nef: replication capacity

Source: Al-Mawsawi et al. 2014 (doi:10.1186/s12977-014-0124-6), supplementary data.

Protein: Nef of HIV-1 NL4-3, numbered from its first residue.
From base 9076 on, changes also alter the 3' U3.
Effects on overlapping genes or RNA elements are not listed.

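Random point mutant libraries of HIV-1 NL4-3, one for each of seven fragments, were passaged in CEM T lymphocytes. The RC index is the frequency of a change after passage round 2 divided by its frequency in the plasmid library.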

A higher RC index is a better tolerated change; approximate classes are lethal up to 0.1, attenuated to 0.2, tolerated above.
A change reads original residue, position, new residue.
Input reads are the counts in the plasmid library.
Base changes are numbered along pNL4-3.
The authors read an index above 1 as above wild type (1.9% of all changes in the genome).
Since each clone held several changes (about five per kb), neutral changes can read low.

For E62D (base G8972T, input reads 313) the result was 0.969.
For Q125L (base A9160T, input reads 358) the result was 0.510.
For A56S (base G8952T, input reads 61) the result was 0.532.
For G140R (base G9204C, input reads 75) the result was 0.626.
For Q104H (base A9098T, input reads 420) the result was 0.673.
For A53T (base G8943A, input reads 444) the result was 0.791.
For Q73H (base G9005T, input reads 369) the result was 0.856.
For P69L (base C8992T, input reads 157) the result was 0.746.
For A84V (base C9037T, input reads 492) the result was 0.563.
For I109S (base T9112G, input reads 32) the result was 0.661.
For L181V (base T9327G, input reads 84) the result was 1.95.
For H116L (base A9133T, input reads 592) the result was 0.559.
For S169R (base C9293A, input reads 128) the result was 0.967.
For I114M (base C9128G, input reads 52) the result was 0.777.
For H89P (base A9052C, input reads 59) the result was 0.163.
For E182Q (base G9330C, input reads 72) the result was 0.688.
For Q73L (base A9004T, input reads 277) the result was 0.255.
For V194A (base T9367C, input reads 382) the result was 0.805.
For A27T (base G8865A, input reads 137) the result was 0.571.
For F90Y (base T9055A, input reads 295) the result was 0.606.
For G99A (base G9082C, input reads 46) the result was 0.460.
For D86V (base A9043T, input reads 475) the result was 0.441.
For E177A (base A9316C, input reads 55) the result was 0.427.
For S9T (base G8812C, input reads 67) the result was 0.124.
For D123N (base G9153A, input reads 303) the result was 0.666.
For K158R (base A9259G, input reads 312) the result was 0.973.
For Q118H (base A9140T, input reads 528) the result was 0.765.
For A15P (base G8829C, input reads 42) the result was 0.186.
For S187T (base G9346C, input reads 85) the result was 0.437.
For G95E (base G9070A, input reads 244) the result was 0.142.
For G119D (base G9142A, input reads 564) the result was 0.719.
For L145Q (base T9220A, input reads 331) the result was 0.575.
For A83S (base G9033T, input reads 87) the result was 0.551.
For L97M (base C9075A, input reads 185) the result was 0.0936.
For Q118R (base A9139G, input reads 336) the result was 0.790.
For R178I (base G9319T, input reads 260) the result was 0.717.
For F68L (base T8990A, input reads 204) the result was 0.429.
For R106I (base G9103T, input reads 130) the result was 0.251.
For E93D (base A9065T, input reads 189) the result was 0.387.
For D28G (base A8869G, input reads 137) the result was 0.777.
For D111V (base A9118T, input reads 554) the result was 0.542.
For V70D (base T8995A, input reads 455) the result was 0.521.
For D186Y (base G9342T, input reads 159) the result was 0.414.
For E179K (base G9321A, input reads 185) the result was 1.47.
For L87V (base C9045G, input reads 45) the result was 0.342.
For R19K (base G8842A, input reads 71) the result was 1.37.
For L110H (base T9115A, input reads 432) the result was 0.463.
For F203C (base T9394G, input reads 36) the result was 0.610.
For K158I (base A9259T, input reads 406) the result was 0.677.
For G132V (base G9181T, input reads 167) the result was 0.983.
For A50P (base G8934C, input reads 110) the result was 0.744.
For R22G (base C8850G, input reads 92) the result was 0.612.
For W183R (base T9333A, input reads 386) the result was 0.542.
For W141S (base G9208C, input reads 36) the result was 0.290.
For T128I (base C9169T, input reads 578) the result was 0.775.
For C142S (base G9211C, input reads 110) the result was 0.509.
For V70L (base G8994C, input reads 118) the result was 0.777.
For V66G (base T8983G, input reads 67) the result was 0.737.
For D174Y (base G9306T, input reads 205) the result was 0.699.
For G96A (base G9073C, input reads 61) the result was 0.851.
For E98G (base A9079G, input reads 421) the result was 0.306.
For T128P (base A9168C, input reads 62) the result was 0.248.
For N126K (base C9164A, input reads 129) the result was 0.880.
For S88R (base C9050G, input reads 35) the result was 0.275.
For H193L (base A9364T, input reads 469) the result was 0.292.
For R178S (base A9320T, input reads 340) the result was 0.816.
For I11N (base T8818A, input reads 386) the result was 0.0359.
For K39I (base A8902T, input reads 111) the result was 0.394.
For Y81F (base A9028T, input reads 309) the result was 0.767.